Pooled drug test results. Numbers come from NIAID ChemDB, via PubChem.

Shared fields: host cell toxicity; cell line: MT-4; read-out: CC50

An empty or dashed field is not shown. Conditions beyond the fields shown may differ between rows. CCn: concentration that lowers growth or viability of the cells by n%.

smiles | read by | value
COc1ccc(-c2csc(/N=C/c3ccc(O)c(OC)c3)n2)cc1 | MTT | ≥100 µM
CN(C)C(=O)N1CCN(C(=O)N(C)CCN2CCCCC2)CC1 | MTT | 125 µg/mL
Cc1cn([C@@H]2O[C@H](CO[Si](C)(C)C(C)(C)C)[C@@]3(OS(=O)(=O)C=C3N)[C@H]2O[Si](C)(C)C(C)(C)C)c(=O)[nH]c1=O | trypan blue | 7.7 µg/mL
COc1ccc(OC)c2c1c(/C(O)=C/C(=O)C(=O)O)cn2Cc1ccc(F)cc1 | - | 213 µM
CN(C)C(=O)N1CCN(C(=O)N2CCOCC2)CC1 | MTT | >125 µg/mL
O=S(=O)(O)c1cc(NS(=O)(=O)c2ccc(-c3ccc(S(=O)(=O)Nc4cc(S(=O)(=O)O)c5cccc(S(=O)(=O)O)c5c4)cc3)cc2)cc2c(S(=O)(=O)O)cccc12 | - | >500 µM
Cc1cn([C@H]2CO[C@H](CP(=O)(O)O)O2)c(=O)[nH]c1=O | - | >332 µM
CCc1nc(SC)n(COCc2ccccc2)c1Cc1ccccc1 | MTT | 34 µM
C(=N\c1nccs1)/c1ccccc1 | MTT | >100 µM
CC1=C(/C=C/C(C)=C/C=C/C(C)=C/C(=O)O)C(C)(C)CCC1 | - | >10 µg/mL
Cc1cn([C@H]2C[C@H](N=[N+]=[N-])[C@@H](CO)O2)c(=O)[nH]c1=O | - | >2 µg/mL
CC(C)CN(C[C@@H](O)[C@H](Cc1ccccc1)NC(=O)O[C@H]1CO[C@H]2OCC[C@H]21)S(=O)(=O)c1ccc(C(N)=O)cc1 | - | >100 µM
O=[N+]([O-])c1ccoc1C=Nc1nsc2ccccc12 | MTT | 4 µM
Cc1cn([C@@H]2O[C@H](C)C3(OS(=O)(=O)C=C3N)[C@H]2O[Si](C)(C)C(C)(C)C)c(=O)[nH]c1=O | trypan blue | 48 µg/mL
C1CNCCNCCCN[C@H]([C@H]2CNCCCNCCNCCCN2)CNC1 | - | 299 µg/mL
Cc1cn([C@@H]2O[C@H](CC3CCCCC3)C3(OS(=O)(=O)C=C3N)[C@H]2O[Si](C)(C)C(C)(C)C)c(=O)[nH]c1=O | trypan blue | 7.4 µg/mL
CC(C)=CCN1Cc2cccc3[nH]c(=O)n(c23)CC1C | - | 840 µM
CC(C)=CCc1c(O)cc(O)c2c(=O)c(O[C@@H]3O[C@@H](C)[C@H](O)[C@@H](O)[C@H]3O)c(-c3ccc(O)cc3)oc12 | - | 210 µg/mL
O=S(=O)(O)OCC1OC2OC3C(COS(=O)(=O)O)OC(OC4C(COS(=O)(=O)O)OC(OC5C(COS(=O)(=O)O)OC(OC6C(COS(=O)(=O)O)OC(OC7C(COS(=O)(=O)O)OC(OC8C(COS(=O)(=O)O)OC(OC9C(COS(=O)(=O)O)OC(OC1C(OS(=O)(=O)O)C2OS(=O)(=O)O)C(OS(=O)(=O)O)C9OS(=O)(=O)O)C(OS(=O)(=O)O)C8OS(=O)(=O)O)C(OS(=O)(=O)O)C7OS(=O)(=O)O)C(OS(=O)(=O)O)C6OS(=O)(=O)O)C(OS(=O)(=O)O)C5OS(=O)(=O)O)C(OS(=O)(=O)O)C4OS(=O)(=O)O)C(OS(=O)(=O)O)C3OS(=O)(=O)O | - | >250 µg/mL
Nc1ncnc2c1ncn2[C@H]1C=C[C@@H](CO)O1 | - | 9.5 µM
Cc1cn([C@H]2CO[C@@H](CP(=O)(O)O)O2)c(=O)[nH]c1=O | - | >332 µM
COc1ccc(C=Nc2nsc3ccccc23)cc1 | MTT | 7 µM
CN(C)C(=O)N1CCN(C(=O)N(C)CCN2CCCC2)CC1 | MTT | 125 µg/mL
Nc1ccn([C@H]2CC[C@@H](CO)O2)c(=O)n1 | - | 3.5 µM
CC(C)=CCN1Cc2cccc3[nH]c(=S)n(c23)C[C@@H]1C | - | >870 µM
O=c1c(O)c(-c2ccc(O)cc2O)oc2cc(O)cc(O)c12 | - | 140 µg/mL
CCOCc1cc(=O)c2ccc3c(c2o1)[C@@H](OC(=O)C12CCC(C)(C(=O)O1)C2(C)C)[C@@H](OC(=O)C(C)C)C(C)(C)O3 | - | >17.5 µM
CC(C)=CCc1c(O)cc(O)c2c1O[C@H](c1ccc(O)cc1)CC2=O | - | 62 µg/mL
O=C(NCc1c(F)cc(F)cc1F)c1cn2c(c(O)c1=O)C(=O)N1C3CCC(CC3)O[C@@H]1C2 | ATP | 3.544 µM
Cc1cc(=O)c2ccc3c(c2o1)[C@@H](OC(=O)C12CCC(C)(C(=O)O1)C2(C)C)[C@@H](OC(=O)C(C)C)C(C)(C)O3 | - | 17.1 µM
c1cc(CN2CCCNCCNCCCNCC2)ccc1CN1CCCNCCNCCCNCC1 | - | >250 µg/mL
CCc1cc(=O)c2ccc3c(c2o1)[C@@H](OC(=O)C12CCC(C)(C(=O)O1)C2(C)C)[C@@H](OC(=O)C12CCC(C)(C(=O)O1)C2(C)C)C(C)(C)O3 | - | 43.08 µM
CC(C)=CCc1c(-c2cc(O)c(O)cc2O)oc2c3c(cc(O)c2c1=O)OC(C)(C)C=C3 | - | 4.1 µg/mL
C1CNCCNCCCNCCNC1 | - | 226 µg/mL
C=CCN1Cc2cccc3[nH]c(=O)n(c23)C[C@H]1C | - | 592 µM
Nc1ccn([C@H]2CO[C@H](CP(=O)(O)O)O2)c(=O)n1 | - | >332 µM
CC(C)=CCC/C(C)=C/Cc1cc([C@H]2Oc3c(CC=C(C)C)c(O)cc(O)c3C(=O)[C@@H]2O)ccc1O | - | >10 µg/mL
CCCCCCCCCCCCCCCC(=O)Nc1cc(S(=O)(=O)O)cc2cc(S(=O)(=O)O)cc(O)c12 | - | 250 µM
Cc1cn([C@@H]2O[C@H](CCC(C)C)C3(OS(=O)(=O)C=C3N)[C@H]2OC(=O)c2ccccc2)c(=O)[nH]c1=O | trypan blue | 12 µg/mL
Cc1cc(=O)c2ccc3c(c2o1)[C@@H](OC(=O)C12CCC(C)(C(=O)O1)C2(C)C)[C@@H](OC(=O)CC(C)C)C(C)(C)O3 | - | 13 µM
Cc1cn([C@H]2C[C@H](N=[N+]=[N-])[C@@H](COP(=O)(O)O)O2)c(=O)[nH]c1=O | - | >10 µM
CC[C@H](C)[C@@H](C(=O)O)n1sc2ccccc2c1=O | - | >100 µM
C=CCN1Cc2cccc3[nH]c(=O)n(c23)C[C@@H]1C | - | 674 µM

3 of the rows above, restated:

CC(C)=CCN1Cc2cccc3[nH]c(=O)n(c23)CC1C ; value: 840 µM
Cc1cc(=O)c2ccc3c(c2o1)[C@@H](OC(=O)C12CCC(C)(C(=O)O1)C2(C)C)[C@@H](OC(=O)C(C)C)C(C)(C)O3 ; value: 17.1 µM
CC[C@H](C)[C@@H](C(=O)O)n1sc2ccccc2c1=O ; value: >100 µM